In US5495006:
The exact form of at least one protein or probe is not confirmed.

Biological target: HIV-1 Tat full-length (86 aa) (Human immunodeficiency virus 1) (UniProt P04608)
Test: competition with a labelled probe
Settings: linker B (triethylene glycol) replaces 6-nt loop between the two strands; competes wild-type TAR 27-mer off Tat completely at 1:1 conjugate:Tat; Tat 100 nM; purified recombinant protein; protein details: American Bio-Technologies, Inc.; label: 5'-32P; variant of TAR 27-mer (oligomer 4)

Does “GGAGAUCUGAGCGCUCUCUCC [TAR conjugate 5B]” bind?
Result: binds
